27 compounds from PubChem BioAssay AID1794808 (University of Kansas High Throughput Screening Laboratory, 2022) can be followed below.

Several values for one entry are separate records, joined by “and”; a condition that tells them apart may be missing. Equal values may be shown once. The entries are a selection whose mix differs from that of the whole data set. Activity calls are given as the source filed them. Rule as the data show it: active = inhibition above about 50%; inactive = the rest.

This experiment relates to Plasmodium falciparum apicoplast DNA polymerase (apPOL). Nature of the experiment: Pf-apPOL inhibitors, biochemical, fluorescence (AID 1794808). As to conditions: Recombinant Pf-apPOL, molecular beacon fluorescence, 1.5 h; at 10 µM; hits give high values.
A word on the inhibition: it is the change of the read-out against control, counted positive when it falls. As to `CCOC(=O)C(=NNc1ccc([N+](=O)[O-])cc1)N1CC1`, the inhibition is inactive: 12.9%.
The same measure for `Cc1cc(C)nc(SC(NC(=O)c2ccccc2)C(Cl)(Cl)Cl)n1` (configuration not stated): inactive: -1.6%; for `O=[N+]([O-])c1ccc(C(O)CNc2c([N+](=O)[O-])cc(C(F)(F)F)cc2[N+](=O)[O-])cc1` (configuration not stated): inactive: -22.2%.
As to `COc1cccc(OP(=O)(Nc2ccccn2)Oc2cccc(OC)c2)c1`, the inhibition was inactive: -4.8%.
Turning to `O=[N+]([O-])c1ccc(-n2ncc3c([N+](=O)[O-])cc([N+](=O)[O-])cc32)cc1`, the inhibition is inactive: -0.9%.
As to `COc1ccccc1OP(=O)(Nc1ccccn1)Oc1ccccc1OC`, the inhibition is inactive: 1.2%.
The same measure for `Cc1ccc(C(=O)NC(SC2=NCCS2)C(Cl)(Cl)Cl)cc1` (configuration not stated): inactive: -0.4%; for `COc1cc(NC(=O)Cn2nc([N+](=O)[O-])c([N+](=O)[O-])c2C)cc([N+](=O)[O-])c1`: inactive: -0.2%; for `O=C(NC(SC1=NCCS1)C(Cl)(Cl)Cl)c1ccc([N+](=O)[O-])cc1` (configuration not stated): inactive: 0.6%.
`Nc1nonc1OCc1nonc1COc1nonc1N`: the inhibition was inactive: -0.7%.
Take `O=C(NC(Sc1ccc(Cl)cc1)C(Cl)(Cl)Cl)c1ccco1` (configuration not stated): the inhibition is inactive: 4.3%.
The same measure for `O=C(c1cc([N+](=O)[O-])c(Cl)c([N+](=O)[O-])c1)c1cc([N+](=O)[O-])c(Cl)c([N+](=O)[O-])c1`: inactive: -2.8%; for `CN(C(=O)Cc1ccc(Cl)c(Cl)c1)[C@@H]1CCCC[C@@H]1N1CCCC1`: inactive: -16.3%; for `O=C(NC1CCS(=O)(=O)C1)NP(=S)(Oc1ccccc1)Oc1ccccc1` (configuration not stated): inactive: -0.9%.
The same measure for `Cc1c([N+](=O)[O-])c([N+](=O)[O-])nn1CC(=O)Nc1ccc([N+](=O)[O-])cc1Cl`: inactive: 0.7%; for `O=C1CCC([N+](=O)[O-])([N+](=O)[O-])CN1CCCCN1CC([N+](=O)[O-])([N+](=O)[O-])CCC1=O`: inactive: 5.4%; for `Cc1cc(SC(NC(=O)C(C)(C)C)C(Cl)(Cl)Cl)ncn1` (configuration not stated): inactive: 1.4%.
`Cc1c(N=Cc2ccc([N+](=O)[O-])s2)cc([N+](=O)[O-])cc1[N+](=O)[O-]`: the inhibition was inactive: -1.6%.
In the case of `COc1cc(Br)c([N+](=O)[O-])nc1[N+](=O)[O-]`, the inhibition is inactive: -1.6%.
The same measure for `CCOP(=Nc1nc2ccccc2n2nnnc12)(OCC)OCC`: inactive: -5%; for `CN(C(=O)Cc1ccc(Cl)c(Cl)c1)[C@H]1CCCC[C@@H]1N1CCCC1`: inactive: -11.5% and inactive: 7.1%; for `CC(C)(c1cc([N+](=O)[O-])c(O)c([N+](=O)[O-])c1)c1cc([N+](=O)[O-])c(O)c([N+](=O)[O-])c1`: inactive: -6.9%.
As for `CN1C(=O)C2C(NC(=NCCN3CCOCC3)N2C)N(C)C1=O` (configuration not stated), the inhibition was inactive: -5.8%.
On to `C1CN(c2nonc2-[n+]2nc3nonc3[n-]2)CCO1`, for which the inhibition is inactive: -0.9%.
As for `O=C(Nc1nnc(N=Cc2ccc([N+](=O)[O-])s2)s1)c1ccc([N+](=O)[O-])cc1[N+](=O)[O-]`, the inhibition is inactive: -5.5%.
The same measure for `CC(=O)NC(Sc1ccc(Cl)cc1)C(Cl)(Cl)Cl` (configuration not stated): inactive: -9%; for `N=C(N)SCC(Br)CN1C(=O)c2ccccc2C1=O` (configuration not stated): inactive: -5.9%.
